Anti-infective test results gathered from many reports (values: NIAID ChemDB through PubChem).

Shared fields: tests in culture; agent: Influenza B virus; endpoint: EC50

Rows are shuffled and stem from different studies. ECn is the concentration giving n% inhibition of infection, replication or growth. An empty or dashed field is not shown.

SMILES	method	cells	strain or isolate	result
CC(N)C12CC3CC(CC(C3)C1)C2		MDCK	B/Victoria/102/85	>25 µM
CC(C)CCCC(C)C1CCC2C3CC=C4CC(OC(=O)Cl)CCC4(C)C3CCC12C	cytopathic effect	MDCK	Singapore/222/79	>200 µM
C#Cc1c(C(N)=O)ncn1[C@@H]1O[C@H](CO)[C@@H](O)[C@H]1O	cytopathic effect	MDCK	Singapore	1 µg/mL
C[C@@H](O)C1=C[C@@H](n2cnc3c(N)ncnc32)[C@H](O)[C@@H]1O	plaque count	MDCK	B/Singapore/222/79	>100 µg/mL
C1CCNC(C23CC4CC(CC(C4)C2)C3)CC1	cytopathic effect	MDCK		>186 µM
NC(=O)c1ncn([C@@H]2O[C@H](CO)[C@@H](O)[C@H]2O)n1	cytopathic effect	MDCK	Singapore/22/79	6 µg/mL
C1CNC(C23CC4CC(CC(C4)C2)C3)C1	cytopathic effect	MDCK		>1035 µM
CC(C)CCCC(C)C1CCC2C3CC=C4CC(O)CCC4(C)C3CCC12C	cytopathic effect	MDCK	Singapore/222/79	>200 µM
Nc1ncnc2c1ncn2[C@@H]1C[C@@H](O)[C@H](CO)O1		MDCK		>100 µM
CC(C)CCCC(C)C1CCC2C3CC=C4CC(OC(=O)Nc5cc(S(=O)(=O)O)cc6cc(S(=O)(=O)O)cc(O)c56)CC[C@]4(C)C3CC[C@]12C	cytopathic effect	MDCK	Singapore/222/79	>200 µM
NC12CC3CC(CC(C3)C1)C2	plaque count	MDCK	B/Singapore/222/79	>90 µg/mL
CC(N)C12CC3CC(CC(C3)C1)C2	plaque count	MDCK	B/Victoria/102/85	>25 µM
CC(C)CCCC(C)C1CCC2C3CC=C4CC(OC(=O)Nc5ccc(S(=O)(=O)O)c6ccccc56)CCC4(C)C3CCC12C	cytopathic effect	MDCK	Singapore/222/79	>200 µM
Cc1ccccc1NC(=O)CSc1sc(N)nc1-c1ccc(Br)cc1Br	cytopathic effect	MDCK cells	B/HK/5/72	>195 µM
NC12CC3CC(CC(C3)C1)C2	plaque count	MDCK	MIE/1/93	>50 µg/mL
CC(N)C12CC3CC(CC(C3)C1)C2	cytopathic effect	MDCK cells	B/HK/5/72	>500 µM
NC(=O)c1c[se]c([C@@H]2O[C@H](CO)[C@@H](O)[C@H]2O)n1		MDCK	B/Singapore/222/79	19 µM
Cc1cn([C@@H]2C[C@@H](O)[C@H](CO)O2)c(=O)[nH]c1=O		MDCK		>100 µM
NC(=O)c1ncn([C@@H]2O[C@H](CO)[C@@H](O)[C@H]2O)c1O	plaque count	MDCK	B/Singapore	3.3 µg/mL
NC(=O)c1nn([C@@H]2O[C@H](CO)[C@@H](O)[C@H]2O)cc1F	plaque count		Victoria	0.2 µg/mL
CN1CCCCCC1C12CC3CC(CC(C3)C1)C2	cytopathic effect	MDCK		>35 µM
Nc1ccn([C@@H]2C[C@H](CO)[C@@H](O)[C@H]2O)c(=O)n1	cytopathic effect	MDCK		4.5 µg/mL

For reference, 2 entries again:

| SMILES | method | cells | strain or isolate | result |
|---|---|---|---|---|
| C#Cc1c(C(N)=O)ncn1[C@@H]1O[C@H](CO)[C@@H](O)[C@H]1O | cytopathic effect | MDCK | Singapore | 1 µg/mL |
| CC(C)CCCC(C)C1CCC2C3CC=C4CC(OC(=O)Nc5cc(S(=O)(=O)O)cc6cc(S(=O)(=O)O)cc(O)c56)CC[C@]4(C)C3CC[C@]12C | cytopathic effect | MDCK | Singapore/222/79 | >200 µM |